Test results taken from publication PMC8268162.

Experiments:
BrpR-His6 [1] = assay: EMSA; details: 40 mM Tris-Cl pH 7.9, 100 mM KCl, 10 mM MgCl2, 1 mM DTT, 0.1 mM EDTA, 0.1 ug/ul BSA, 0.1 ug poly(dI-dC) in 20 ul, 25 min at 30 C, EMSA DNA 5 nM, footprinting DNA 40 nM, recombinant protein, protein details: C-terminal His6, label: 6-FAM on reverse primer, probe letters rebuilt from the primers and the genome
BrpR-His6 [2] = assay: DNase I footprinting; details: 1 uM protein, with or without 50 uM c-di-GMP, 40 mM Tris-Cl pH 7.9, 100 mM KCl, 10 mM MgCl2, 1 mM DTT, 0.1 mM EDTA, 0.1 ug/ul BSA, 0.1 ug poly(dI-dC) in 20 ul, 25 min at 30 C, recombinant protein, protein details: C-terminal His6, label: 6-FAM on reverse primer, probe letters rebuilt from the primers and the genome
[3] = no c-di-GMP, affinity similar to with c-di-GMP
[4] = 50 uM c-di-GMP, full shift at 200 nM, self-competed

Measured: binding result

ATCCCTCCTCGCATTCTTCGCTCGCGCTCGGTAATATGCCTCTGAGTTTGCAATGTCTCATTGGTGCGACGAATGCTTTGGCGTTGTTACTTATTTGGGTGATCAATGTCGATTATTTGAAATATTAATTTGACAACTTCTTGACAGTGCTGGTGTCAAATTTATGTACATTGCGACCGTTTTTTCTCATCCAAACAATCATTCGTATCAATATCGACTTGTGTTTTTTAACAAGGTCTATGTGTTTCAAGGTTGTAGATAGGTTCTCGTAATGACTTCAAATAAAGCACTAAAGTTTGCCGATGA (double strand) [VV1_2302 upstream region]
binds: BrpR-His6 [1]; 50 uM c-di-GMP, full shift at 100 nM (highest affinity), self-competed | BrpR-His6 [1]; [3] | BrpR-His6 [2]; single palindromic site of 18-21 bp

CATCTTTCTCCCACATCTTCTACGATCTAATCCCGCCGACTAATCACAAAAATATACCATTCCTGATATCAATGTATCACATATGAGATGAATAAATTTTAGATTCACTTTTACTTAATTAGTATTTTAAAAGTGAATAAAACAGCCTTAAAGTTGTCTCTAGCACTTTGCGATTAGCTGAGTGCTTCTTAAAACAAAAATAGTATGAAGTATAAAATTTTAGAATGAGACGTTTCAGTATGGGTTGTAATATGGCAGACACAACGATTGTATTAGTCACTCAACAAAGCCTTCAGAGTGAGAATC (double strand) [brpT upstream region]
binds: BrpR-His6 [1]; [4] | BrpR-His6 [1]; [3] | BrpR-His6 [2]; single site of 18-21 bp

TTCCGTCCTTGTGCTCATCCCATATCCTTTTTAAATCACAGCCAATCAACATCCGTTTGCCATTTATCTAGGTTTGAATTGCGACATCATGGGCGAACCATATATTTCCTTTTCGCTTCCCATTTAGCTCAGTCGTCTCTGTCTTTTCAACCCTTAACAAGACAAATGTTTCGGTGATATTTCGCTTTCTAATATTCACACTTTAAGTGAGCGGTAGCGTATCAATGAGTATGAATAAGACAAACAGGCAACCGGCTCAAACAAGGTTTTTTCCTATAAATAAGACAATCGCTACCGCACT (double strand) [brpL upstream region]
binds: BrpR-His6 [1]; [4] | BrpR-His6 [1]; [3] | BrpR-His6 [2]; single site of 18-21 bp
